Laboratory results published in patent US20080095778A1 (NEUTEC PHARMA, published 2008).

Molecular target: peptide having the sequence of SEQ ID NO: 2 (conserved Aspergillus species hsp90 epitope) (A. fumigatus and A. niger (conserved in …))
Experiment: not described

B1: Mycograb® antibody (scFv)
scFv: HMAEVQLVESGAEVKKPGESLRISCKGSGCIISSYWISWVRQMPGKGLEWMGKIDPGDSYINYSPSFQGHVTISADKSINTAYLQWNSLKASDTAMYYCARGGRDFGDSFDYWGQGTLVTVSSGGGGSGGGGSGGGGSDVVMTQSPSFLSAFVGDRITITCRASSGISRYLAWYQQAPGKAPKLLIYAASTLQTGVPSRFSGSGSGTEFTLTINSLQPEDFATYYCQHLNSYPLTFGGGTKVDIKRAA
notes: also called Mycograb (RTM) antibody
B1: binds.
